Key:
Beta-lactamase 1 [1] = molecular target: T1, Beta-lactamase 1 (Bacillus cereus, UniProt P00809); assay: ChEBML_40228
Method: (§1) Tested for the ability to inhibit Beta-lactamase of Bacillus cereus (class A enzyme) with 10 minutes pre-incubation

Chains of the proteins cited; added tags and fusions are not shown. Residues count along the entry.
UniProt P00809, 28-306 limits assumed: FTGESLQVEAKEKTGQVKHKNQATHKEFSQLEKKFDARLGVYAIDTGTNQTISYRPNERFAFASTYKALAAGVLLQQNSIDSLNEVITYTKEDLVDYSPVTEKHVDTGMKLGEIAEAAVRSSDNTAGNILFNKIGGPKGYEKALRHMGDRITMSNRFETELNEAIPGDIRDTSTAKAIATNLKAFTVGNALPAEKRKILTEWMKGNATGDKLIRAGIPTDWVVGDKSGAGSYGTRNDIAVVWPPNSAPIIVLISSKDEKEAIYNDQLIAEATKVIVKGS

Beta-lactamase 1 [2] = molecular target: T1, Beta-lactamase 1; assay: as §1

| SMILES | IC50 (Beta-lactamase 1 [1]) [mM] | IC50 (Beta-lactamase 1 [2]) [mM] |
| --- | --- | --- |
| C[C@@]1(CCl)S[C@@H]2[C@@H](Br)C(=O)N2[C@H]1C(=O)O | > 5 | 1 |
| C[C@@]1(CCl)S[C@@H]2[C@@H](F)C(=O)N2[C@H]1C(=O)O | > 5 | – |
| C[C@@]1(CCl)S[C@@H]2[C@@H](Cl)C(=O)N2[C@H]1C(=O)O | > 5 | – |
